Compound potency records, mixed from different reports. Data source: NIAID ChemDB in PubChem.

Shared fields: tests in culture; agent: HIV-2; read-out: EC50

Lines come from different laboratories, so protocols vary.

| structure | method | conditions | mutations | strain or isolate | cells | result |
|---|---|---|---|---|---|---|
| O=c1[nH]c(=O)n([C@H]2C[C@H](O)[C@@H](CO)O2)cc1C(OCC(F)(F)F)OCC(F)(F)F | p24 |  |  |  | CEM | >100 µg/mL |
| C#C[C@]1(CO)O[C@@H](n2ccc(N)nc2=O)[C@@H](O)[C@@H]1O | β-galactosidase |  |  | ROD | HeLa | 0.012 µM |
| CC(=O)Nc1nc2c(ncn2/C=C/P(=O)(O)O)c(=O)[nH]1 |  |  |  | ROD | CEM + CEM-SS | >200 µM |
| CN1N=C(N)c2cn([C@@H]3O[C@H](COP(=O)(O)O)[C@@H](O)[C@H]3O)c3ncnc1c23 | XTT |  |  | ROD | CEM + CEM-SS | 0.02 µM |
| CCn1c(-n2[nH]c(=O)c3ccccc3c2=O)nc2ccccc2c1=O | visual reading |  |  | ROD | MT-4 | 100 µM |
| CC(=O)c1ccc(C)cc1NC(C(N)=O)c1c(Cl)cccc1Cl | cytopathic effect / MTT |  | RT-S102L E219D | EHO | MT-4 | 28.5 µM |
| Oc1cc(O)c2c(c1)O[C@H](c1ccc(O)c(O)c1)[C@@H](O)C2 | ELISA |  |  | ROD | C8166 | 5 µg/mL |
| Cc1cn([C@H]2C=C[C@@H](COP(=O)(O[C@H](C)c3ccccc3)O[C@H](C)c3ccccc3)O2)c(=O)[nH]c1=O | cytopathic effect / syncytia |  |  | ROD | CEM + CEM TK- | >250 µM |
| C#C[C@]1(CO)O[C@@H](n2cnc3c(N)ncnc32)C[C@@H]1O | β-galactosidase |  |  | EHO | HeLa | 0.001 µM |
| CC[C@H](C)[C@@H](C(=O)O)n1sc2ccccc2c1=O | p24 / RT activity |  |  |  | CEM | 5.8 µM |
| CCCc1cc(=O)oc2c3c(c4c(c12)OC(C)(C)C=C4)O[C@H](C)[C@@H](C)[C@@H]3O | XTT |  |  | ROD | CEM + CEM-SS | >10 µM |
| NNC(=O)c1csc(N2N=C(c3ccccc3)CC2c2ccc(Cl)cc2)n1 | MTT / absorbance |  |  | ROD | MT-4 | >125 µM |
| COc1ccccc1-n1c(-n2[nH]c(=O)c3ccccc3c2=O)nc2ccccc2c1=O | visual reading |  |  | ROD | MT-4 | 100 µM |
| COC(=O)CC(OP(=O)(OC[C@@H]1C=C[C@H](n2cc(C)c(=O)[nH]c2=O)O1)OC(CC(=O)OC)c1ccccc1)c1ccccc1 | cytopathic effect / syncytia |  |  | ROD | CEM + CEM/O | 8 µM |
| CCOP(=O)(/C=C\n1cnc2c(N)ncnc21)OCC |  |  |  | ROD | CEM + CEM-SS | >200 µM |
| Oc1cc(O)c2c(c1)O[C@H](c1cc(O)c(O)c(O)c1)[C@@H](O)C2 | ELISA |  |  | ROD | C8166 | 8 µg/mL |
| O=C(N/N=C/c1ccccc1Cl)c1csc(N2N=C(c3ccccc3)CC2c2ccc(Cl)cc2)n1 | MTT / absorbance |  |  | ROD | MT-4 | >125 µM |
| CC(C)(C)[Si](C)(C)OC[C@H]1O[C@@H](n2cnc3nc[nH]c(=O)c32)[C@H](O[Si](C)(C)C(C)(C)C)C12OS(=O)(=O)C=C2N | trypan blue |  |  | ROD | MT-4 | >4 µg/mL |
| C#C[C@]1(CO)O[C@@H](n2cnc3c(=O)[nH]cnc32)C[C@@H]1O | β-galactosidase |  |  | ROD | HeLa | 0.29 µM |
| Cn1cnc2c(ncn2[C@@H]2O[C@H](CO[Si](C)(C)C(C)(C)C)C3(OS(=O)(=O)C=C3N)[C@H]2O[Si](C)(C)C(C)(C)C)c1=O | trypan blue |  |  | ROD | MT-4 | >100 µg/mL |
| COc1ccc(/C=N/NC(=O)c2csc(N3N=C(c4ccccc4)CC3c3ccc(Cl)cc3)n2)cc1 | MTT / absorbance |  |  | ROD | MT-4 | >125 µM |
| C1CNCCNCCCN[C@H]([C@@H]2CNCCCNCCNCCCN2)CNC1 | cytopathic effect / MTT |  |  | ROD | MT-4 | 0.29 µM |
| CCn1cnc2ncn([C@@H]3O[C@H](CO[Si](C)(C)C(C)(C)C)C4(OS(=O)(=O)C=C4N)[C@H]3O[Si](C)(C)C(C)(C)C)c2c1=O | trypan blue |  |  | ROD | MT-4 | >100 µg/mL |
| CC1(C)[C@@H](O[C@H]2O[C@H](C(=O)O)[C@@H](O)[C@H](O)[C@H]2O[C@@H]2O[C@H](C(=O)O)[C@@H](O)[C@H](O)[C@H]2O)CC[C@]2(C)[C@H]3C(=O)C=C4[C@@H]5C[C@@](C)(C(=O)O)CC[C@]5(C)CC[C@@]4(C)[C@]3(C)CC[C@@H]12 | ELISA |  |  | rot | MT-4 | <1000 µg/mL |
| Cc1cn([C@H]2C[C@H](N=[N+]=[N-])[C@@H](CO)O2)c(=O)[nH]c1=O | cytopathic effect / XTT | clinical isolate |  | CDC310342 | PBMC | 0.006 µM |
| C#C[C@]1(CO)O[C@@H](n2cc(C)c(=O)[nH]c2=O)C[C@@H]1O | β-galactosidase |  |  | ROD | HeLa | 0.34 µM |
| C#C[C@]1(CO)O[C@@H](n2cnc3c(N)nc(F)nc32)CC1O | β-galactosidase / absorbance |  | K65R K70R Q151M M184V | ROD9 | MAGIC-5A | 0.007 µM |
| COc1ccccc1/C=N/NC(=O)c1csc(N2N=C(c3ccccc3)CC2c2ccc(Cl)cc2)n1 | MTT / absorbance |  |  | ROD | MT-4 | >10.32 µM |
| CCOP(=O)(/C=C/n1ccc(N)nc1=O)OCC |  |  |  | ROD | CEM + CEM-SS | >200 µM |
| COc1ccc(/C=N/NC(=O)c2csc(N3N=C(c4ccccc4)CC3c3ccc(Cl)cc3)n2)cc1O | MTT / absorbance |  |  | ROD | MT-4 | >61.75 µM |
| CC(C)(C)NC(=O)[C@@H]1C[C@@H]2CCCC[C@@H]2CN1CC(O)[C@H](Cc1ccccc1)NC(=O)[C@H](CC(N)=O)NC(=O)c1ccc2ccccc2n1.CS(=O)(=O)O | MTT / p24 |  |  | EHO | MT-4 | 0.0058 µM |
| O=c1[nH]n(-c2nc3ccccc3c(=O)n2-c2ccccc2)c(=O)c2ccccc12 | visual reading |  |  | ROD | MT-4 | 100 µM |
| COC(=O)CC(OP(=O)(OC[C@@H]1C=C[C@H](n2cc(C)c(=O)[nH]c2=O)O1)OC(CC(=O)OC)c1ccc(OC(C)=O)cc1)c1ccc(OC(C)=O)cc1 | cytopathic effect / syncytia |  |  | ROD | CEM + CEM TK- | 0.2 µM |
| [N-]=[N+]=N[C@H]1C[C@H](n2cc(COCC(F)(F)F)c(=O)[nH]c2=O)O[C@@H]1CO | p24 |  |  |  | CEM | 3.1 µg/mL |
| CC(C)(C)OC(=O)N[C@@H](Cc1ccccc1)[C@H](O)CNC[C@@H](O)[C@H](Cc1ccc(OCC(=O)N2CCOCC2)cc1)NC(=O)OC(C)(C)C | cytopathic effect / XTT |  |  | CBL-20 | CEM + CEM-SS | 0.07 µM |
| Cc1cn([C@H]2C[C@H](F)[C@@H](CO)O2)c(=O)[nH]c1=O | ELISA |  |  | 1814 | PBMC | 0.004 µM |
| CC(=O)ON1COC[C@H]2O[C@@H](n3cc(C)c(=O)[nH]c3=O)C[C@@H]21 | trypan blue |  |  | ROD | MT-4 | 19 µg/mL |
| Nc1ncnc2c1ncn2[C@H]1CC[C@@H](CO)O1 | virus yield |  |  | LAV-2 | CEM | <1 µM |
| CC(C)(C)[Si](C)(C)OC[C@H]1O[C@@H](n2cnc3c(=O)[nH]cnc32)[C@H](O[Si](C)(C)C(C)(C)C)C12OS(=O)(=O)C=C2N | trypan blue |  |  | ROD | MT-4 | >4 µg/mL |
| COc1ccc(-n2c(-n3[nH]c(=O)c4ccccc4c3=O)nc3ccccc3c2=O)cc1 | visual reading |  |  | ROD | MT-4 | 100 µM |
| O=C(N/N=C/c1ccc(O)cc1)c1csc(N2N=C(c3ccccc3)CC2c2ccc(Cl)cc2)n1 | MTT / absorbance |  |  | ROD | MT-4 | >17.75 µM |
| C1CNCCNCCCNCCNC1 | cytopathic effect / MTT |  |  | ROD | MT-4 | 150 µM |
| Cc1cn([C@H]2C[C@@H]3[C@@H](COCN3O)O2)c(=O)[nH]c1=O | trypan blue |  |  | ROD | MT-4 | 4.3 µg/mL |
| CC(C)Nc1cccnc1N1CCN(C(=O)c2cc3cc(NS(C)(=O)=O)ccc3[nH]2)CC1 | cytopathic effect / MTT |  |  | ROD | MT-4 | >47.3 µM |
| Cc1cn([C@H]2C=C[C@@H](COP3(=O)Oc4ccccc4C(C)O3)O2)c(=O)[nH]c1=O | cytopathic effect / syncytia |  |  | ROD | CEM + CEM/O | 0.34 µM |
| CCOP(=O)(/C=C/n1cc(Br)c(=O)[nH]c1=O)OCC |  |  |  | ROD | CEM + CEM-SS | >200 µM |
| O=C(N/N=C/c1cc([N+](=O)[O-])ccc1Cl)c1csc(N2N=C(c3ccccc3)CC2c2ccc(Cl)cc2)n1 | MTT / absorbance |  |  | ROD | MT-4 | >125 µM |
| CCC[C@]1(CCc2ccccc2)CC(O)=C([C@@H](CC)c2cccc(NS(=O)(=O)c3ccc(C(F)(F)F)cn3)c2)C(=O)O1 | MTT / p24 |  |  | EHO | MT-4 | 0.2858 µM |
| Cc1cn([C@H]2C[C@H](N=[N+]=[N-])[C@@H](CO)O2)c(=O)[nH]c1=O | XTT |  |  | ROD | CEM + CEM-SS | 0.005 µM |
| O=c1[nH]c(=O)n([C@H]2C[C@H](O)[C@@H](CO)O2)cc1COCC(F)(F)F | p24 |  |  |  | CEM | 100 µg/mL |
| O=C(NCc1ccc(F)cc1)c1nc(N2CCCCS2(=O)=O)c2cccnc2c1O | β-galactosidase |  |  | ROD |  | 0.0086 µM |
| CCOP(=O)(/C=C/n1cc(CO)c(=O)[nH]c1=O)OCC |  |  |  | ROD | CEM + CEM-SS | >200 µM |
| Cc1cn([C@H]2C[C@H](N=[N+]=[N-])[C@@H](CO)O2)c(=O)[nH]c1=O | cytopathic effect / MTS |  |  | EHO | MT-4 | 0.0004 µM |
| O=c1c(O)c(-c2ccc(O)c(O)c2)oc2cc(O)cc(O)c12 | ELISA |  |  | ROD | C8166 | >50 µg/mL |
| CNc1ncnc2c1ncn2[C@@H]1O[C@H](CO[Si](C)(C)C(C)(C)C)C2(OS(=O)(=O)C=C2N)[C@H]1O[Si](C)(C)C(C)(C)C | trypan blue |  |  | ROD | MT-4 | >4 µg/mL |
| Oc1cc(O)c2c(c1)O[C@H](c1cc(O)c(O)c(O)c1)[C@H](O)C2 | ELISA |  |  | ROD | C8166 | >100 µg/mL |
| CC(C)[C@H](NC(=O)c1ccc2ccccc2n1)C(=O)N[C@@H](Cc1ccccc1)[C@H](O)CN1CC[C@@H](OCc2ccncc2)C[C@H]1C(=O)NC(C)(C)C | p24 / ELISA / antigen |  |  | ROD | CEMx174 | 0.004 µM |
| CN=C1CN=C(c2ccc[nH]2)c2cc(Cl)ccc2N1 | antigen |  |  | UC-1 | CEM | 0.1 µM |
| C1CNCCNCCCN(CCCN2CCCNCCNCCCNCC2)CCNC1 | cytopathic effect / MTS |  |  | ROD | MT-4 | 8.95 µM |
| CCCc1cc(=O)oc2c3c(c4c(c12)OC(C)(C)C=C4)O[C@@H](C)[C@H](C)[C@@H]3O | XTT |  |  | ROD | CEM + CEM-SS | >10 µM |

A second listing of 6 rows from above:

structure | method | conditions | mutations | strain or isolate | cells | result
Nc1ncnc2c1ncn2[C@H]1CC[C@@H](CO)O1 | virus yield |  |  | LAV-2 | CEM | <1 µM
COC(=O)CC(OP(=O)(OC[C@@H]1C=C[C@H](n2cc(C)c(=O)[nH]c2=O)O1)OC(CC(=O)OC)c1ccc(OC(C)=O)cc1)c1ccc(OC(C)=O)cc1 | cytopathic effect / syncytia |  |  | ROD | CEM + CEM TK- | 0.2 µM
Oc1cc(O)c2c(c1)O[C@H](c1cc(O)c(O)c(O)c1)[C@@H](O)C2 | ELISA |  |  | ROD | C8166 | 8 µg/mL
CC[C@H](C)[C@@H](C(=O)O)n1sc2ccccc2c1=O | p24 / RT activity |  |  |  | CEM | 5.8 µM
COc1ccc(/C=N/NC(=O)c2csc(N3N=C(c4ccccc4)CC3c3ccc(Cl)cc3)n2)cc1 | MTT / absorbance |  |  | ROD | MT-4 | >125 µM
Cc1cn([C@H]2C[C@H](F)[C@@H](CO)O2)c(=O)[nH]c1=O | ELISA |  |  | 1814 | PBMC | 0.004 µM

An empty or dashed field is not shown. ECn is the concentration giving n% inhibition of infection, replication or growth.